Measured values from several laboratories, pooled; numbers as filed in NIAID ChemDB.

All rows: enzyme or target tests; agent: HIV-1; protein: Reverse transcriptase; measure: IC50

ICn is the concentration giving n% inhibition. An empty or dashed field is not shown. a–b is a range or a potency band. Conditions beyond the fields shown may differ between rows.

SMILES	strain or isolate	changes	method	result
CCN1c2ncc(CCOc3ccc(-c4ccc(C)nc4)cc3C)cc2C(=O)N(C)c2cccnc21	IIIB	-	nucleotide incorporation / radiometric	<0.05 µM
CC(C)(C#Cc1ccc(NC(=O)CSc2nnnn2-c2ccc(C3CC3)cc2Cl)c(Cl)c1)NCC(N)=O	-	RT-K103 Y181C	PicoGreen / fluorescence	<1 µM
CCOC(=O)CNC(=O)c1ccc(NC(=O)CSc2nnc(Br)n2-c2ccc(C3CC3)c3ccccc23)c(Cl)c1	-	-	nucleotide incorporation / radiometric	<0.05 µM
CCN1c2ncc(CCOc3ccc(C(C)CC(=O)O)c4ccccc34)cc2C(=O)N(C)c2cccnc21	-	RT-Y188L	nucleotide incorporation / radiometric	>1 µM
NS(=O)(=O)c1ccc(NC(=O)CSc2nnc(Br)n2-c2ccc(C3CC3)c3ccccc23)c(Cl)c1	-	-	nucleotide incorporation / radiometric	<0.05 µM
CCN1c2ncc(CCOc3ccc4cc(CC(=O)NN)ccc4c3)cc2C(=O)N(C)c2cccnc21	-	RT-V106A	nucleotide incorporation / radiometric	<0.1 µM
Cc1cc(S(N)(=O)=O)ccc1NC(=O)CSc1nnc(Br)n1-c1ccc2c3c(cccc13)CC2	-	-	nucleotide incorporation / radiometric	<0.05 µM
Cc1ccc(-n2nnnc2SCC(=O)Nc2ccc(-c3ccc(CC(=O)O)cc3)cc2[N+](=O)[O-])c(Cl)c1	WT	-	PicoGreen / fluorescence	<1 µM
CCN1c2ncc(CCOc3ccc(-c4cccc(C(C)C(=O)O)c4)cc3C)cc2C(=O)N(C)c2cccnc21	IIIB	RT-K103N Y181C	nucleotide incorporation / radiometric	0.05–0.1 µM
CCN1c2ncc(CCOc3ccc(/C=C(\C)C(=O)O)c4ccccc34)cc2C(=O)Nc2c(C)ccnc21	WT	-	nucleotide incorporation / radiometric	<0.1 µM
CCC(C#Cc1ccc(NC(=O)CSc2nnnn2-c2ccc(C3CC3)cc2Cl)c(Cl)c1)(CC)NC(=O)OC(C)(C)C	WT	-	PicoGreen / fluorescence	<1 µM
CCN1c2ncc(CCOc3ccc(-c4ccc(C)cc4)cc3C)cc2C(=O)N(C)c2cccnc21	IIIB	-	nucleotide incorporation / radiometric	<0.05 µM
CC(C)(C#Cc1ccc(NC(=O)CSc2nnnn2-c2ccc(C(C)(C)C)cc2Cl)c(Cl)c1)OCC(=O)N1CCC(C(=O)O)CC1	WT	-	PicoGreen / fluorescence	<1 µM
CCN1c2ncc(CCOc3ccc(-c4cc[n+]([O-])cc4)cc3)cc2C(=O)N(C)c2cccnc21	IIIB	RT-K103N Y181C	nucleotide incorporation / radiometric	<0.05 µM
CC(C)(C#Cc1ccc(NC(=O)CSc2nnc(C(F)(F)F)n2-c2ccc(C3CC3)cc2Cl)c(Cl)c1)C(=O)O	WT	-	PicoGreen / fluorescence	<1 µM
CCN1c2ncc(CCOc3ccc(CC(=O)NN)c4ccccc34)cc2C(=O)N(C)c2cccnc21	-	RT-Y188L	nucleotide incorporation / radiometric	0.1–1 µM

2 of the rows above, restated:

SMILES	strain or isolate	changes	method	result
CCC(C#Cc1ccc(NC(=O)CSc2nnnn2-c2ccc(C3CC3)cc2Cl)c(Cl)c1)(CC)NC(=O)OC(C)(C)C	WT	-	PicoGreen / fluorescence	<1 µM
CCOC(=O)CNC(=O)c1ccc(NC(=O)CSc2nnc(Br)n2-c2ccc(C3CC3)c3ccccc23)c(Cl)c1	-	-	nucleotide incorporation / radiometric	<0.05 µM